Values from PubChem BioAssay AID1259414 (Drosophila RNAi Screening Center, 2018)
Screen: 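Fly genes that alter Wolbachia amount inside host cells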 (primary screen). Cells: Drosophila JW18 cells infected with Wolbachia. Knock-down reagent: long dsRNA against Drosophila genes, 0.25 µg dsRNA per well of a 384-well plate. Duration: 5 days. Conditions: cells persistently infected with Wolbachia before knock-down; no added drug. Measured: 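Automated imaging of bacterial rRNA staining divided by host cell count, reported as plate-normalised robust z-score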. Reading the numbers: Wolbachia per cell robust z: higher = more Wolbachia per host cell than the plate typical. Rule for the call: 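Hit when robust z is 1.5 or more, or -1.5 or less, in at least two of three replicates; excludes dsRNAs with several or no targets, genes not expressed in JW18 and well A1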.
The deposit covers about 24,000 reagents; below is an unselected part of those with a known target gene and a result. Of all reagents, about 1,210 (5%) are marked active. 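Inactive calls also include excluded dsRNAs with several or no targets, genes unexpressed in JW18, and well A1, regardless of score.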 No sequences are given here.

Target gene	amplicon	Wolbachia per cell robust z, rep 1	Wolbachia per cell robust z, rep 2	Wolbachia per cell robust z, rep 3	Outcome
alphaTub84D (alpha-Tubulin at 84D)	DRSC12623	-3.58	2.59	2.32	active
alphaTub84D (alpha-Tubulin at 84D)	DRSC23498	1.92	2.11	1.88	active
alphaTub84D (alpha-Tubulin at 84D)	DRSC38951	-1.04	-0.166	0.0465	inactive
Oatp58Db (Organic anion transporting polypeptide 58Db)	DRSC04364	-0.727	-0.0723	-0.553	inactive
Oatp58Db (Organic anion transporting polypeptide 58Db)	DRSC24248	0.295	-0.0456	-1.63	inactive
Oatp58Db (Organic anion transporting polypeptide 58Db)	DRSC39039	-1.52	-0.489	-0.077	inactive
Jon99Cii (Jonah 99Cii)	DRSC16858	0.498	-4.16	-1.59	inactive
Jon99Cii (Jonah 99Cii)	DRSC22574	0.43	0.96	0.802	inactive
CG30357	DRSC22472	-2.83	0.0404	0.439	inactive
Aos1 (Activator of SUMO 1)	DRSC14113	0.843	-0.126	-0.313	inactive
Aos1 (Activator of SUMO 1)	DRSC29634	1.2	1	1.14	inactive
Obsc (Obscurin)	DRSC04301	-2.28	-1.54	-0.0159	inactive
Obsc (Obscurin)	DRSC04302	-0.0981	-0.56	0.342	inactive
Obsc (Obscurin)	DRSC04303	-0.307	0.339	0.0585	inactive
Obsc (Obscurin)	DRSC04430	-5.28	-0.294	0.346	inactive
Obsc (Obscurin)	DRSC22422	-1.12	0.00811	-0.0095	inactive
pont (pontin)	DRSC17029	-2.07	-2.45	-0.437	active
GstD3 (Glutathione S transferase D3)	DRSC15571	-0.177	0.323	0.475	inactive
GstD3 (Glutathione S transferase D3)	DRSC24755	0.445	0.691	-0.823	inactive
Mettl2 (Methyltransferase like 2)	DRSC08398	1.13	0.867	-0.936	inactive
Mettl2 (Methyltransferase like 2)	DRSC29727	-1.2	0.631	0.818	inactive
CheB53a (Chemosensory protein B 53a)	DRSC06625	-2.07	-0.502	0.656	inactive
MTF-1 (Metal response element-binding Transcription Factor-1)	DRSC11217	1.12	0.903	-0.916	inactive
MTF-1 (Metal response element-binding Transcription Factor-1)	DRSC21341	0.0984	0.762	-0.976	inactive
Rbp1-like	DRSC19828	-2.15	0.589	-2.92	active
Rbp1-like	DRSC21938	-1.16	-2.3	-0.359	inactive
Rbp1-like	DRSC22075	-0.323	0.169	0.772	inactive
Rbp1-like	DRSC25442	-0.678	-0.482	-6.31	inactive
Rbp1-like	DRSC26949	0.0758	0.275	0.396	inactive

Targets listed so far whose target name starts with A or a (5):
Target gene	amplicon	Wolbachia per cell robust z, rep 1	Wolbachia per cell robust z, rep 2	Wolbachia per cell robust z, rep 3	Outcome
alphaTub84D (alpha-Tubulin at 84D)	DRSC12623	-3.58	2.59	2.32	active
alphaTub84D (alpha-Tubulin at 84D)	DRSC23498	1.92	2.11	1.88	active
alphaTub84D (alpha-Tubulin at 84D)	DRSC38951	-1.04	-0.166	0.0465	inactive
Aos1 (Activator of SUMO 1)	DRSC14113	0.843	-0.126	-0.313	inactive
Aos1 (Activator of SUMO 1)	DRSC29634	1.2	1	1.14	inactive
